Assay: Ca2+ dependent aggregation (light scattering) of E. coli phospholipid vesicles

Substance: SP-A: Native surfactant protein A isolated from the alveolar wash of silica-pretreated rats
- Ca2+ induced aggregation of E coli phospholipid vesicles (added at 0 time): decreased aggregation
- Established aggregation of E coli phospholipid vesicles (added at 8 minutes): reversed established aggregation
